Source: US20230332126

Biological target: full-length human recombinant SNAP23 protein (23 kDa)

B1: wild-type BoNT/E light chain (protein)
chain: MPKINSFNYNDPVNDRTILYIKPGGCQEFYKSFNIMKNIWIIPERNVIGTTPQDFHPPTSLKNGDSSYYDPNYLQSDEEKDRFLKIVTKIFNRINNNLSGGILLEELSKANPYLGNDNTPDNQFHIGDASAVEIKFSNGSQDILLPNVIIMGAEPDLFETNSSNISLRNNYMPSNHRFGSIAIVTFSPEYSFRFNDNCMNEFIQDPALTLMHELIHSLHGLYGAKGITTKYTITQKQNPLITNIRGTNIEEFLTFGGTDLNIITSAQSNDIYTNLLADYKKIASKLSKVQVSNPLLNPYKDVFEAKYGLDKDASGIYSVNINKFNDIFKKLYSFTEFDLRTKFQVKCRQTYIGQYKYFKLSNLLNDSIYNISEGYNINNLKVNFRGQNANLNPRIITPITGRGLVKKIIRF
In the case of B1, the “in vitro cleavage, anti-SNAP23 Western blot (400 nM, 37° C., 1 hour)” value is reported as “The untreated, wtLC/A, and wtLC/E lanes provided negative controls”.
